Measured values taken from article PMC5053896 (Journal of the American Chemical Society, 2016).

By UniProt entry, the sequences of proteins in these tests, tags left out. Where a name states a change or a piece, a line headed by the entry shows the natural chain unless it says otherwise.
UniProt P9WMW7: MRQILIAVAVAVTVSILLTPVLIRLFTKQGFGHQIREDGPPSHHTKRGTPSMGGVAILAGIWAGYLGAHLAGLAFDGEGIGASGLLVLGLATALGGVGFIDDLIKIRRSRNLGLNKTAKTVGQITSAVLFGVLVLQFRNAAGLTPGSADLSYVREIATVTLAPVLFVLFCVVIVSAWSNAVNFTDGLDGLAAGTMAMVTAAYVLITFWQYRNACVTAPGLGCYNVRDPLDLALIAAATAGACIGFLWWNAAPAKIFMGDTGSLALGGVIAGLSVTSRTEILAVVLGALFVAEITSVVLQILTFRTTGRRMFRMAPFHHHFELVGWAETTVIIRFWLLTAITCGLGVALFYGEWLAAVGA
UniProt P9WMW5: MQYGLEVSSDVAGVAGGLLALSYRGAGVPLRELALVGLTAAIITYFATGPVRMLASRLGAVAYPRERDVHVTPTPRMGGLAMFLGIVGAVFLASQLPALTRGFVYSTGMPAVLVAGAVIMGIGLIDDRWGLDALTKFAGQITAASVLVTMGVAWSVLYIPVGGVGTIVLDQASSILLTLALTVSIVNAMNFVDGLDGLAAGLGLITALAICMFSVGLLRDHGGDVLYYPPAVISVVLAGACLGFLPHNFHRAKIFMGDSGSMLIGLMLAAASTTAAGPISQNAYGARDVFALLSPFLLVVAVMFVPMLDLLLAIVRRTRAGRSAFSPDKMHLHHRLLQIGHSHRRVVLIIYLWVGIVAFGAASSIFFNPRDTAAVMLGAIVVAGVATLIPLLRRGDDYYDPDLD

What was measured:
[1] = biological target: MurX (Mycobacterium tuberculosis, UniProt P9WMW7); format: biochemical, M. tuberculosis; conditions: read-out: MurX inhibition IC50
[2] = biological target: WecA (polyprenyl phosphate-GlcNAc-1-phosphate transferase) (Mycobacterium tuberculosis, UniProt P9WMW5); format: biochemical, M. tuberculosis; conditions: read-out: WecA inhibition IC50

Substance | IC50 [1] | IC50 [2]
Muraymycin D1-amide [Muraymycin D1-amide (2)] | 11 nM | 660 nM
Muraymycin D1-diamide [Muraymycin D1-diamide (3)] | 9.6 nM | 70 nM
